Source: patent US20090047272A1

Target: HIV protein gp120 on HIV-infected MT-4 cells (HIV)
Assay: cell-based or functional assay

Bovine DNase-PEG-CD4 complex (from UniProt P00639 23-282; P01730 26-396)
Mean RT Activity [%] in HIV-infected MT-4 cells at 100 UA/ml: 11%
Mean RT Activity [%] in HIV-infected MT-4 cells at 500 UA/ml: 4%
p24 [%] in HIV-infected MT-4 cells at 100 UA/ml: 6.5%
p24 [%] in HIV-infected MT-4 cells at 500 UA/ml: 2.3%
